## HIV-1 5' UTR: DMS reactivities by position

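Mutant RNA libraries with 1G, 2G or 3G starts, with or without cap, were folded at 37 °C for 30 min. Monomer and dimer bands were cut from native gels after folding in high salt (300 mM KCl, 5 mM MgCl2) or low salt (40 mM KCl, 0.1 mM MgCl2). Each band was probed in the gel with DMS (170 mM, 15 min, 37 °C), with ethanol as control, and sequenced.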

Sequence of the HIV-1 NL4-3 5' RNA, positions 1 to 437, as numbered in the source:
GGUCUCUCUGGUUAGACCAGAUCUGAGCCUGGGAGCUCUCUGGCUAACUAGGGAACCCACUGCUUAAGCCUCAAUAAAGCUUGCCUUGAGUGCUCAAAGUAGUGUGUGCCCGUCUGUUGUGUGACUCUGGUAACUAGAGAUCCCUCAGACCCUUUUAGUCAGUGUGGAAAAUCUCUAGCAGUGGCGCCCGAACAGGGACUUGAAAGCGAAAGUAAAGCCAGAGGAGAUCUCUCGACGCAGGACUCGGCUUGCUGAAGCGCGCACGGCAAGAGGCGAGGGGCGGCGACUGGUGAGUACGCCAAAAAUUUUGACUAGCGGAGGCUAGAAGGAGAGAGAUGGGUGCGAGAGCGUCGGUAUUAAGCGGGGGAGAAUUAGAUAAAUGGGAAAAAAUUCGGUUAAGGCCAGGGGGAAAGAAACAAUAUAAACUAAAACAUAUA

Values are winsor-normalised DMS reactivities of A and C; higher means more reactive, usually unpaired.
One numbering serves 1G, 2G and 3G.
A position is written with its base.

| position | domain | 1G uncapped low-salt dimer | 2G capped low-salt dimer | 3G uncapped high-salt monomer |
|---|---|---|---|---|
| A198 | PBS | 0.63 | 0.56 | 0.58 |
| A399 | none | 0.39 | 0.27 | 0.17 |
| C85 | PolyA | 0.43 | 0.38 | 0.13 |
| A34 | TAR | 0.86 | 1.02 | 1.25 |
| A437 | none | 0.03 | 0.03 | 0.03 |
| A171 | PBS | 0.46 | 0.43 | 0.47 |
| C56 | TAR | 0.16 | 0.03 | 0.03 |
| A50 | TAR | 0.37 | 0.15 | 0.12 |
| A368 | none | 0.83 | 0.77 | 0.94 |
| C260 | SL1 | 0.34 | 0.38 | 0.38 |
| A324 | SL3 | 0.08 | 0.08 | 0.13 |
| C23 | TAR | 0.98 | 1.16 | 1.45 |
| A169 | PBS | 0.72 | 0.68 | 0.72 |
| A293 | SL2 | 0.88 | 0.83 | 0.74 |
| A305 | none | 0.70 | 0.68 | 0.72 |
| C316 | SL3 | 0.05 | 0.05 | 0.10 |
| A411 | none | 0.80 | 0.81 | 0.87 |
| A326 | none | 0.89 | 0.90 | 0.92 |
| A98 | PolyA | 0.23 | 0.27 | 0.61 |
| A389 | none | 0.17 | 0.18 | 0.16 |
| C343 | AUG | 0.32 | 0.32 | 0.64 |
| A374 | none | 0.54 | 0.49 | 0.48 |
| C229 | CU | 0.11 | 0.15 | 0.34 |
| A336 | AUG | 0.89 | 0.75 | 0.71 |
| C40 | TAR | 0.03 | 0.03 | 0.03 |
| C127 | PAS | 0.03 | 0.03 | 0.03 |
| C189 | PBS | 0.20 | 0.10 | 0.09 |
| A296 | SL2 | 0.55 | 0.60 | 0.61 |
| A138 | PBS | 0.10 | 0.11 | 0.13 |
| A388 | none | 0.09 | 0.09 | 0.08 |
| C152 | PBS | 0.91 | 0.82 | 0.85 |
| C238 | none | 0.47 | 0.47 | 0.78 |
| C160 | PBS | 0.03 | 0.05 | 0.08 |
| C349 | none | 0.29 | 0.33 | 0.28 |
| A416 | none | 0.42 | 0.45 | 0.52 |
| A170 | PBS | 0.55 | 0.50 | 0.57 |
| A180 | PBS | 0.50 | 0.58 | 0.69 |
| A161 | PBS | 0.45 | 0.46 | 0.51 |
| C150 | PBS | 0.04 | 0.05 | 0.05 |
| C300 | none | 0.06 | 0.07 | 0.09 |
| C125 | PAS | 0.07 | 0.10 | 0.07 |
| A356 | none | 1.01 | 0.95 | 0.80 |
| A191 | PBS | 0.36 | 0.39 | 0.41 |
| A74 | PolyA | 0.62 | 0.64 | 0.97 |
| A140 | PBS | 0.31 | 0.33 | 0.40 |
| A168 | PBS | 0.43 | 0.44 | 0.47 |
| A370 | none | 0.49 | 0.50 | 0.53 |
| C28 | TAR | 0.10 | 0.03 | 0.03 |
| A359 | none | 0.54 | 0.57 | 0.54 |
| C426 | none | 0.73 | 0.73 | 0.75 |
| A271 | SL1 | 0.55 | 0.54 | 0.49 |
| C95 | PolyA | 0.59 | 0.54 | 0.47 |
| A255 | SL1 | 0.47 | 0.48 | 0.49 |
| A386 | none | 1.30 | 1.25 | 1.31 |
| A286 | SL2 | 0.60 | 0.61 | 0.54 |
| A157 | PBS | 1.05 | 0.90 | 0.97 |
| C142 | PBS | 0.07 | 0.07 | 0.08 |
| A304 | none | 0.15 | 0.16 | 0.15 |

Values reported by Ye et al. 2022 (doi:10.1038/s41594-022-00746-2).